Results deposited as PubChem BioAssay AID624099 (ICCB-Longwood, 2012)
The whole screen tested about 21,000 reagents; below is an unselected part. Of all reagents, 497 (2.4%) are marked active. 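Higher z means weaker E2 silencing; only reporter increases were scored, and knock-downs that hurt cell survival may mask genuine repressor factors.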

Screen: 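Knock-downs relieving repression by E2 of an HPV18 LCR luciferase reporter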 (primary screen)
System: human C33A cervical carcinoma cells (HPV-negative) stably expressing BPV1 E2 and an HPV18 LCR luciferase reporter
Knock-down reagent: siRNA pool against human genes, 40 nM
Duration: 72 h
Read-out: 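HPV18 LCR reporter light per well, converted to plate-wise z-scores that exclude control wells, and averaged over triplicate plates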
Scale: mean z-score and z-score: higher = stronger reporter signal, weaker E2 silencing
Rule for the call: 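Hit if mean z-score reaches 2 and two or more of three replicate z-scores also reach 2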

| Gene | mean z-score | z-score, replicate A | z-score, replicate B | z-score, replicate C | Call |
| --- | --- | --- | --- | --- | --- |
| PAPPA2 | -0.12 | 0.03 | -0.01 | -0.38 | inactive |
| GPRC5A | -0.97 | -0.81 | -1.04 | -1.06 | inactive |
| SS18L2 | 1.94 | 2.53 | 1.91 | 1.39 | inactive |
| PTPRN | 0.99 | 1.34 | 0.8 | 0.84 | inactive |
| SLC22A5 | -0.26 | -0.23 | -0.14 | -0.39 | inactive |
| NUDT19 | 0.21 | 0.18 | 0.42 | 0.03 | inactive |
| ZNF449 | -0.61 | -0.71 | -0.57 | -0.55 | inactive |
| TAS2R31 | -0.4 | -0.19 | -0.42 | -0.59 | inactive |
| BCAP29 | -0.66 | -0.68 | -0.71 | -0.6 | inactive |
| GOLGA8IP | -0.71 | -0.68 | -0.56 | -0.89 | inactive |
| LOC389409 (retired record) | 1.37 | 1.45 | 1.11 | 1.56 | inactive |
| FBF1 | 0.28 | 0.1 | 0.38 | 0.37 | inactive |
| EHD4 | 0.49 | 0.94 | 0.22 | 0.31 | inactive |
| STAR | -0.15 | -0.34 | -0.1 | -0.01 | inactive |
| OR52E6 | 0.22 | 0.21 | 0.29 | 0.17 | inactive |
| PDCD6 | 0 | 0.08 | -0.02 | -0.08 | inactive |
| KRTAP11-1 | -0.22 | 0.02 | -0.09 | -0.6 | inactive |
| ZNF22-AS1 | -0.65 | -0.87 | -0.37 | -0.7 | inactive |
| C10orf53 | -1.46 | – | -1.4 | -1.52 | inactive |
| DPPA2 | 0.92 | 0.78 | 1.05 | 0.93 | inactive |
| GGT6 | -0.69 | -0.74 | -0.75 | -0.6 | inactive |
| KCNN3 | -0.15 | -0.18 | -0.08 | -0.17 | inactive |
| LOC389199 | -2.25 | -2.51 | -2.05 | -2.18 | inactive |

A portion of the results above:
| Gene | mean z-score | z-score, replicate A | z-score, replicate B | z-score, replicate C | Call |
| --- | --- | --- | --- | --- | --- |
| TAS2R31 | -0.4 | -0.19 | -0.42 | -0.59 | inactive |
| BCAP29 | -0.66 | -0.68 | -0.71 | -0.6 | inactive |
| GOLGA8IP | -0.71 | -0.68 | -0.56 | -0.89 | inactive |
| LOC389409 (retired record) | 1.37 | 1.45 | 1.11 | 1.56 | inactive |
| FBF1 | 0.28 | 0.1 | 0.38 | 0.37 | inactive |
| EHD4 | 0.49 | 0.94 | 0.22 | 0.31 | inactive |

The list goes on.
| Gene | mean z-score | z-score, replicate A | z-score, replicate B | z-score, replicate C | Call |
| --- | --- | --- | --- | --- | --- |
| CADM1 | -0.82 | -0.9 | -0.91 | -0.65 | inactive |
| GREB1 | -0.84 | -0.71 | -1.15 | -0.67 | inactive |
| ZNF555 | -0.51 | 0.17 | -0.76 | -0.93 | inactive |
| HTATIP2 | -0.09 | -0.14 | 0 | -0.14 | inactive |
| PHPT1 | 0.62 | 0.95 | 0.25 | 0.67 | inactive |
| CENPO | -0.11 | 0.12 | -0.26 | -0.18 | inactive |
| GUCY1A1 | -0.77 | -1.04 | -0.88 | -0.4 | inactive |
| PLAAT3 | 0.38 | 0.3 | 0.64 | 0.2 | inactive |
| GMFG | 0.52 | 0.43 | 1 | 0.12 | inactive |
| LGALS8 | 0.73 | 1.2 | 0.43 | 0.55 | inactive |
| KCTD1 | 0.22 | 0.12 | 0.11 | 0.41 | inactive |
| MPEG1 | 0.18 | 0.09 | 0.31 | 0.14 | inactive |
| NKD1 | -0.93 | -0.98 | -0.93 | -0.88 | inactive |
| SPSB3 | -2.74 | -2.38 | -2.68 | -3.14 | inactive |
| EEFSEC | 2.13 | 2.33 | 2 | 2.05 | active |
| HTR3E | 1.06 | 0.68 | 0.98 | 1.51 | inactive |
| REG1B | 0.05 | -0.15 | 0.19 | 0.12 | inactive |
| NUDT8 | -1.34 | -0.97 | -1.18 | -1.86 | inactive |
| CCDC86 | -1.28 | -0.98 | -1.37 | -1.49 | inactive |
| NDUFV1-DT | -0.55 | -0.43 | -0.45 | -0.78 | inactive |
| MSRB1 | -0.52 | -0.27 | -0.52 | -0.78 | inactive |
| DPYS | 0.08 | -0.02 | -0.06 | 0.32 | inactive |
| LINC03062 | -0.51 | -0.08 | -0.73 | -0.74 | inactive |
| IL34 | 0.37 | 0.24 | 0.37 | 0.49 | inactive |
| WSB1 | -1.31 | -1.35 | -1.22 | -1.35 | inactive |
| RUSC2 | -0.36 | -0.41 | -0.12 | -0.55 | inactive |
| SNHG17 | 0.9 | 0.96 | 0.39 | 1.36 | inactive |
| SLC16A6 | -1.68 | -1.42 | -1.92 | -1.69 | inactive |
| CTDNEP1 | 2.02 | 1.69 | 2.23 | 2.15 | active |
| TUBB6 | -0.33 | -0.25 | -0.45 | -0.28 | inactive |
| SLC25A15 | -0.82 | -0.72 | -0.86 | -0.87 | inactive |
| PDP2 | -0.39 | -0.18 | -0.61 | -0.38 | inactive |
| GAREM1 | -3.09 | -3.28 | -3.07 | -2.93 | inactive |
| WNT11 | 1.36 | 1.19 | 1.6 | 1.3 | inactive |
